Pooled drug test results. Numbers come from NIAID ChemDB, via PubChem.

All rows: enzyme or target tests; organism: HIV-1; protein: Reverse transcriptase; endpoint: IC50

An empty or dashed field is not shown. ICn: concentration for n% inhibition. Neighbouring rows are from separate reports.

| structure | strain | changes | method | result |
|---|---|---|---|---|
| C=C1C(=O)O[C@@H]2C[C@@H]3[C@]4(CC[C@]5(C)[C@@H]([C@H](C)CC/C=C(\C)C=O)CC[C@@]35C)C[C@]4(CCC(=O)OC)[C@H]12 | - | - | - | 49.7 µg/mL |
| Nc1nc2c(ncn2[C@H]2CC[C@@H](COP(=O)(O)OP(=O)(O)OP(=O)(O)OP(=O)(O)OC[C@@H]3CC[C@H](n4cnc5c(=O)[nH]c(N)nc54)O3)O2)c(=O)[nH]1 | WT | - | nucleotide incorporation / radiometric | 1.8 µM |
| Cc1cc(C(=O)Nc2ccc(S(=O)(=O)O)c3cc(S(=O)(=O)O)cc(S(=O)(=O)O)c23)ccc1NC(=O)Nc1ccc(C(=O)Nc2ccc(S(=O)(=O)O)c3cc(S(=O)(=O)O)cc(S(=O)(=O)O)c23)cc1C | IIIB | - | nucleotide incorporation | 48 µg/mL |
| Nc1cccnc1N1CCN(C(=O)c2cc3ccccc3[nH]2)CC1 | - | - | nucleotide incorporation | >100 µM |
| CCN1c2ncc(CCOc3ccc(C(=O)N=c4ccn(O)cc4)cc3C)cc2C(=O)N(C)c2cccnc21 | IIIB | - | nucleotide incorporation / radiometric | <0.05 µM |
| CC(C)Nc1cccnc1N(C)C1CCN(C(=O)c2cc3ccccc3[nH]2)C1 | - | - | nucleotide incorporation | >100 µM |
| Nc1ncnc2c1ncn2[C@H]1CC[C@@H](COP(=O)(O)OP(=O)(O)OP(=O)(O)OP(=O)(O)OC[C@@H]2CC[C@H](n3cnc4c(N)ncnc43)O2)O1 | WT | - | nucleotide incorporation / radiometric | 6.5 µM |
| CC(C)Nc1cccnc1N1CCN(C(=O)c2cc3ccc(F)cc3[nH]2)CC1 | - | - | nucleotide incorporation | <100 µM |
| CS(=O)(=O)O.O=C(O)c1cn(-c2cccc3ccccc23)c2cc(N3CCNCC3)c(F)cc2c1=O | - | - | ELISA | >1 µg/mL |
| CCN1c2ncc(CCOc3ccc(C(=O)Nc4cccc(CC(=O)O)c4)cc3C)cc2C(=O)N(C)c2cccnc21 | IIIB | RT-K103N Y181C | nucleotide incorporation / radiometric | <0.05 µM |
| O=C(CNc1ccc(C(=O)Nc2cc(S(=O)(=O)O)cc3cc(S(=O)(=O)O)cc(S(=O)(=O)O)c23)cc1)CNc1ccc(C(=O)Nc2cc(S(=O)(=O)O)cc3cc(S(=O)(=O)O)cc(S(=O)(=O)O)c23)cc1 | IIIB | - | nucleotide incorporation | 42 µg/mL |
| CCN1c2ncc(CCOc3ccc(C(=O)NS(C)(=O)=O)cc3C)cc2C(=O)N(C)c2cccnc21 | IIIB | - | nucleotide incorporation / radiometric | <0.05 µM |
| CC(C)Nc1cccnc1N1CCC(C2CCN(C(=O)c3cc4ccccc4[nH]3)CC2)CC1 | - | - | nucleotide incorporation | >100 µM |
| Cc1ccc(C(=O)Nc2cc(C(=O)Nc3cc(C(=O)Nc4ccc(S(=O)(=O)O)c5cc(S(=O)(=O)O)cc(S(=O)(=O)O)c45)ccc3C)ccc2C)cc1NC(=O)Nc1cc(C(=O)Nc2cc(C(=O)Nc3cc(C(=O)Nc4ccc(S(=O)(=O)O)c5cc(S(=O)(=O)O)cc(S(=O)(=O)O)c45)ccc3C)ccc2C)ccc1C | IIIB | - | nucleotide incorporation | 28 µg/mL |
| CCCCCCCCCCCCCCCC/C=C\CCC#CCCC(=O)O[C@H](C)C[C@H](CCC[C@@](C)(O)CC(=O)NCCS(=O)(=O)O)CC(C)=O | - | - | - | 6.5 µM |
| CC(C)=CCN1Cc2cccc3[nH]c(=S)n(c23)C[C@@H]1C | - | - | nucleotide incorporation | 0.126 µM |
| CC(C)Nc1cccnc1N1CCN(C(=O)c2cc3cc(O)ccc3[nH]2)CC1 | - | - | nucleotide incorporation | <100 µM |
| O=C(Nc1cccc(C(=O)Nc2ccc(C(=O)Nc3cc(S(=O)(=O)O)cc4cc(S(=O)(=O)O)cc(S(=O)(=O)O)c34)cc2)c1)Nc1cccc(C(=O)Nc2ccc(C(=O)Nc3cc(S(=O)(=O)O)cc4cc(S(=O)(=O)O)cc(S(=O)(=O)O)c34)cc2)c1 | IIIB | - | nucleotide incorporation | 55 µg/mL |
| Cc1ccc(NC(=O)COc2cccnc2-c2cccc3ccccc23)c([N+](=O)[O-])c1 | - | - | RT activity / ELISA / absorbance | 38.3 µM |
| CS(=O)(=O)O.O=C(O)c1cn(-c2ccc3ccccc3c2)c2cc(N3CCNCC3)c(F)cc2c1=O | - | - | ELISA | <1 µg/mL |
| COc1cc(O)c2c(=O)cc(-c3cc(O)c(OC)c(O)c3)oc2c1 | - | - | - | >12.1 µg/mL |
| CCNc1cccnc1N1CCN(CCCc2cc(C)c(O)c(C)c2)CC1 | - | - | nucleotide incorporation | >100 µM |
| CN1CCN(c2nc3c(cc2F)c(=O)c(C(=O)O)cn3-c2ccc3ccccc3c2)CC1.CS(=O)(=O)O | - | - | ELISA | >1 µg/mL |
| CC(C)Nc1cccnc1OCCOC(=O)c1cc2ccccc2[nH]1 | - | - | nucleotide incorporation | <100 µM |
| Cc1cc(C)cc(S(=O)(=O)c2c(C(N)=O)[nH]c3ccc(Cl)cc23)c1 | - | RT-L100I | nucleotide incorporation / radiometric | 0.06 µM |
| O=C(COc1cccnc1-c1cccc2ccccc12)Nc1cccnc1Cl | - | - | RT activity / ELISA / absorbance | 87.3 µM |
| CS(=O)(=O)O.O=C(O)c1cn(-c2ccc3ccccc3c2)c2nc(N3CCNCC3)c(F)cc2c1=O | - | - | ELISA | 1 µg/mL |
| Cc1cc(C)cc(S(=O)(=O)c2c(C(N)=O)[nH]c3ccc(F)c(F)c23)c1 | - | RT-Y181I | nucleotide incorporation / radiometric | 1.5 µM |
| CS(=O)(=O)O.N[C@H]1CCN(c2nc3c(cc2F)c(=O)c(C(=O)O)cn3-c2cccc3ccccc23)C1 | - | - | ELISA | >1 µg/mL |
| CCCc1cc(=O)oc2c3c(c4c(c12)OC(C)(C)C=C4)O[C@H](C)C[C@@H]3O | WT | - | nucleotide incorporation / radiometric | 2.88 µM |
| Cc1cccc2[nH]c(C(=O)N3CCN(c4ncccc4NC(C)C)CC3)cc12 | - | - | nucleotide incorporation | <100 µM |
| COc1oc([C@H]2CC/C(=C/C(C)=C/c3ccc([N+](=O)[O-])cc3)O2)c(C)c(=O)c1C | - | - | - | 132 µg/mL |
| CSC1=NC2(C[C@@H]2c2ccccc2)C(=O)N1C(C)=O | - | - | - | 22.2 µg/mL |
| COc1cccc(F)c1C1SCC(=O)N1c1nccc(C)n1 | - | - | nucleotide incorporation / radiometric | 9.7 µM |
| CCN1c2ncc(CCOc3ccc(-c4ccccn4)cc3C)cc2C(=O)N(C)c2cccnc21 | IIIB | RT-K103N Y181C | nucleotide incorporation / radiometric | <0.05 µM |
| CS(=O)(=O)O.N[C@H]1CCN(c2cc3c(cc2F)c(=O)c(C(=O)O)cn3-c2ccc3ccccc3c2)C1 | - | - | ELISA | 1 µg/mL |
| O=C(Nc1ccc(-c2ccc(C(=O)Nc3ccc(S(=O)(=O)O)c4cc(S(=O)(=O)O)cc(S(=O)(=O)O)c34)cc2)cc1)Nc1ccc(-c2ccc(C(=O)Nc3ccc(S(=O)(=O)O)c4cc(S(=O)(=O)O)cc(S(=O)(=O)O)c34)cc2)cc1 | IIIB | - | nucleotide incorporation | 46 µg/mL |
| CCN1c2ncc(CCc3ccccc3)cc2C(=O)N(C)c2cccnc21 | IIIB | RT-Y188L RT-Y181C | RT activity | >>1 µM |
| CC1CN(c2nc3c(cc2F)c(=O)c(C(=O)O)cn3-c2cccc3ccccc23)CCN1.CS(=O)(=O)O | - | - | ELISA | ~1 µg/mL |
| O=C(Nc1cccc(C(=O)Nc2ccc(P(=O)(O)O)cc2)c1)Nc1cccc(C(=O)Nc2ccc(P(=O)(O)O)cc2)c1 | IIIB | - | nucleotide incorporation | 5 µg/mL |
| CCN1c2ncc(CCc3ccccc3)cc2C(=O)N(C)c2ccc(Cl)nc21 | IIIB | RT-K103N | RT activity | 0.05 µM |
| COc1cc2oc(-c3cc(O)c(OC)c(O)c3)c(OC)c(=O)c2c(O)c1OC | - | - | - | >16.2 µg/mL |
| Nc1nc2c(ncn2[C@H]2CC[C@@H](COP(=O)(O)OP(=O)(O)OP(=O)(O)O)O2)c(=O)[nH]1 | WT | - | nucleotide incorporation / radiometric | 0.12 µM |
| O=C(Nc1cc(C(=O)Nc2ccc(S(=O)(=O)O)c3cc(S(=O)(=O)O)cc(S(=O)(=O)O)c23)ccc1F)Nc1cc(C(=O)Nc2ccc(S(=O)(=O)O)c3cc(S(=O)(=O)O)cc(S(=O)(=O)O)c23)ccc1F | IIIB | - | nucleotide incorporation | 12 µg/mL |
| Nc1ccn([C@H]2CC[C@@H](COP(=O)(O)OP(=O)(O)OP(=O)(O)OP(=O)(O)OC[C@@H]3CC[C@H](n4ccc(N)nc4=O)O3)O2)c(=O)n1 | WT | - | nucleotide incorporation / radiometric | 2.1 µM |
| CC(C)Nc1cccnc1N1CCN(C(=O)c2cc3ccc(OCc4ccccc4)cc3[nH]2)CC1 | - | - | nucleotide incorporation | <100 µM |

For reference, 7 entries again:

structure	strain	changes	method	result
Cc1ccc(NC(=O)COc2cccnc2-c2cccc3ccccc23)c([N+](=O)[O-])c1	-	-	RT activity / ELISA / absorbance	38.3 µM
C=C1C(=O)O[C@@H]2C[C@@H]3[C@]4(CC[C@]5(C)[C@@H]([C@H](C)CC/C=C(\C)C=O)CC[C@@]35C)C[C@]4(CCC(=O)OC)[C@H]12	-	-	-	49.7 µg/mL
CS(=O)(=O)O.O=C(O)c1cn(-c2cccc3ccccc23)c2cc(N3CCNCC3)c(F)cc2c1=O	-	-	ELISA	>1 µg/mL
Nc1nc2c(ncn2[C@H]2CC[C@@H](COP(=O)(O)OP(=O)(O)OP(=O)(O)O)O2)c(=O)[nH]1	WT	-	nucleotide incorporation / radiometric	0.12 µM
CCN1c2ncc(CCOc3ccc(C(=O)NS(C)(=O)=O)cc3C)cc2C(=O)N(C)c2cccnc21	IIIB	-	nucleotide incorporation / radiometric	<0.05 µM
CC1CN(c2nc3c(cc2F)c(=O)c(C(=O)O)cn3-c2cccc3ccccc23)CCN1.CS(=O)(=O)O	-	-	ELISA	~1 µg/mL
COc1cc(O)c2c(=O)cc(-c3cc(O)c(OC)c(O)c3)oc2c1	-	-	-	>12.1 µg/mL